# Test results published in PMC3878761, “Interactions of peptide triazole thiols with Env gp120 induce irreversible breakdown and inactivation of HIV-1 virions” (Retrovirology, 2013).
# System: HIV-1 BaL pseudovirus infection of HOS CD4^-ve CCR5^+ve cells
# Experiment: enhancement of infection of CD4 negative cells
# Settings: n=3
compound,measurement,value
CC[C@H](C)[C@H](NC(=O)[C@@H](N)CCCNC(=N)N)C(=O)N[C@@H](CC(N)=O)C(=O)N[C@@H](CC(N)=O)C(=O)N[C@H](C(=O)N1C[C@@H](n2cc([C]34[CH]5[CH]6[CH]7[CH]3[Fe]6754389%10[CH]4[CH]3[CH]8[CH]9[CH]4%10)nn2)C[C@H]1C(=O)N[C@@H](Cc1c[nH]c2ccccc12)C(=O)N[C@@H](CO)C(=O)N[C@@H](CCC(=O)O)C(=O)N[C@@H](C)C(=O)N[C@@H](CCSC)C(=O)N[C@@H](CCSC)C(=O)NCCC(=O)N[C@@H](CCC(N)=O)C(=O)NCCC(=O)N[C@@H](CS)C(N)=O)[C@@H](C)CC (stereo partly shown) [KR13],enhancement of infection of CD4 negative cells,no enhancement of infection was observed
